Results deposited as PubChem BioAssay AID1259414 (Drosophila RNAi Screening Center, 2018)
Assay: 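Host factors increasing or decreasing Wolbachia levels in cultured fly cells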 (primary screen). Cell system: Drosophila JW18 cells infected with Wolbachia. Reagents: long dsRNA against Drosophila genes, 0.25 µg dsRNA per well of a 384-well plate. Timing: 5 days. Treatment: cells persistently infected with Wolbachia before knock-down; no added drug. Measurement: 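Imaged fluorescence in situ signal for Wolbachia 23S rRNA per DAPI-counted host cell, given as a robust z-score within each plate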. Scale: Wolbachia per cell robust z: higher = more Wolbachia per host cell than the plate typical. Active means: 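Hit when robust z is 1.5 or more, or -1.5 or less, in at least two of three replicates; excludes dsRNAs with several or no targets, genes not expressed in JW18 and well A1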.
The screen tested about 24,000 reagents; shown is a random part of those with a known target gene and a result. Of all reagents, about 1,210 (5%) are marked active. 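Inactive calls also include excluded dsRNAs with several or no targets, genes unexpressed in JW18, and well A1, regardless of score.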 Unmarked entries are inactive. Reagents against one gene are numbered here. A plus sign joins genes that one reagent is predicted to hit.

gene knocked down | reagent | Wolbachia per cell robust z, rep 1 | Wolbachia per cell robust z, rep 2 | Wolbachia per cell robust z, rep 3
CG13014 | 1 | 0.568 | -2.16 | -3.3
CG13014 | 2 | 0.859 | 0.172 | 0.401
CG13014 | 3 | 0.751 | 1.29 | 0.622
Mau2 | 1 | 0.85 | -0.402 | 0.625
Amt | 1 | 0.707 | 0.576 | 1.47
Amt | 2 | -1.5 | -1.56 | 2.2
VhaAC45RP | 1 | 0.433 | 0.296 | 0.642
VhaAC45RP | 2 | 1.32 | 0.799 | 1.42
Or65a | 1 | 0.673 | 0.679 | 2.01
Tsp97E | 1 | -4.8 | -0.726 | 0.00386
Tsp97E | 2 | -0.479 | -0.781 | 1.02
lncRNA:CR32652 | 1 | -1.97 | -1.25 | 0.366
lncRNA:CR32652 | 2 | -0.143 | 0.103 | -1.46
lncRNA:CR32652 | 3 | -0.726 | 0.811 | -0.487
kel | 1 | -0.755 | -1.14 | -0.748
CG42467 | 1 | -0.874 | 1.14 | -0.0269
CG30183 | 1 | -1.03 | 0.575 | 0.914
CG30183 | 2 | -0.739 | -0.221 | -1.9
CG13358 | 1 | -0.6 | -0.462 | 0.766
CG13358 | 2 | 1.2 | -0.164 | -1.57
CenG1A | 1 | 0.354 | 0.462 | 0.199
CenG1A | 2 | 0.239 | -0.455 | 1.3
CenG1A | 3 | 0.439 | 1.37 | 1.52
CenG1A | 4 | 0.436 | -0.278 | -1.57

Quoted from the listing, 4 entries:
gene knocked down | reagent | Wolbachia per cell robust z, rep 1 | Wolbachia per cell robust z, rep 2 | Wolbachia per cell robust z, rep 3
CG13014 | 2 | 0.859 | 0.172 | 0.401
CG13014 | 3 | 0.751 | 1.29 | 0.622
Mau2 | 1 | 0.85 | -0.402 | 0.625
Amt | 1 | 0.707 | 0.576 | 1.47

The results go on.
gene knocked down | reagent | Wolbachia per cell robust z, rep 1 | Wolbachia per cell robust z, rep 2 | Wolbachia per cell robust z, rep 3
CG2059 | 1 | 0.559 | -0.271 | 0.822
CG12104 | 1 | 0.672 | 0.886 | 0.737
CG12104 | 2 | 0.0313 | -0.403 | 1.35
Obp99c | 1 | 0.134 | -1.71 | 0.677
Lsm11 | 1 | 0.0572 | -0.162 | 0.354
CG34327 | 1 | -3.91 | -0.25 | -1.71
CG34327 | 2 | -0.14 | 0.425 | -0.657
CG34327 | 3 | 0.0636 | -2.26 | -0.904
e | 1 | -7.44 | -0.434 | 0.389
e | 2 | 0.834 | 0.996 | -0.0385
CG12868 | 1 | -0.0639 | 0.587 | -0.288
CG12868 | 2 | -0.869 | -1.27 | -0.0694
MCTS1 | 1 | -0.089 | -0.369 | 0.261
zen2 | 1 | 0.874 | 0.552 | 0.0586
zen2 | 2 | -0.00659 | -0.45 | -0.0174
CG7246 | 1 | -0.00486 | 0.308 | 0.331
Sec61alpha | 1 | 0.0128 | 0.38 | 1.47
Gclm | 1 | 1.37 | 0.0707 | 1.07
Gclm | 2 | 0.558 | -0.646 | 0.185
asRNA:CR43468 + Lfg | 1 | 0.966 | 1.26 | 0.66
CG14811 | 1 | 0.885 | -1.87 | 0.542
Cep164 | 1 | -2.25 | 0.136 | -0.602
witty | 1 | -1.8 | -3.23 | -6.95
witty | 2 | 0.0217 | 0.499 | -0.00235
witty | 3 | -1.43 | -1.34 | -0.647
CG32695 | 1 | 0.825 | 0.529 | 0.944
Zdhhc8 | 1 | 0.0431 | 0.736 | -0.705
Zdhhc8 | 2 | -0.892 | 0.726 | 0.163
CG12746 | 1 | -0.00932 | -5.5 | 0.0921
CG14736 | 1 | -0.927 | 0.0175 | 0.145
CG14736 | 2 | -1.05 | -1.01 | -0.365
mbo | 1 | -0.287 | -0.931 | 0.372
PPP1R15 | 1 | 2.92 (active) | 2.57 | 0.768
PPP1R15 | 2 | 2.03 (active) | 2.33 | 2.3
pins | 1 | 0.447 | 0.688 | -1.49
eIF2Balpha | 1 | -0.184 | 0.993 | 0.286
CG32240 | 1 | -0.431 | 0.0521 | 0.09
CG32204 | 1 | 0.327 | -3.53 | -0.232
CG32204 | 2 | -0.989 | 1.96 | -0.478
Strica | 1 | -0.71 | 0.363 | 0.701
Tbc1d22 | 1 | -0.542 | -1.01 | 0.127
Uba5 | 1 | 0.313 | 0.3 | -1.03
Spn88Eb | 1 | -0.198 | -5.98 | 1.27
dpr4 | 1 | 0.123 | -0.661 | -0.158
dpr4 | 2 | -0.371 | 0.115 | 1
